Anti-infective test results gathered from many reports (values: NIAID ChemDB through PubChem).

All rows: tests on isolated targets; species: HIV-1; protein: Reverse transcriptase; measure: fold resistance

Fold resistance has wild type as its base. a–b is a range or a potency band. Conditions beyond the fields shown may differ between rows.

{"compound": "O=c1c2cccn2c2ccccc2n1CCNC(=S)Nc1ccc(Cl)cn1", "mutations": "RT-K103N", "method": "nucleotide incorporation", "result": "33"}
{"compound": "Cc1c(Cc2c(F)cccc2F)nc(SCc2ccc(C#N)cc2)[nH]c1=O", "mutations": "RT-181I", "method": "nucleotide incorporation / radiometric", "result": ">526"}
{"compound": "CNc1ccc(Cl)cc1S(=O)(=O)c1ccccc1[N+](=O)[O-]", "mutations": "RT-P236L", "result": "0.00455"}
{"compound": "CCC1(c2ccc(COc3cccnc3)cc2)Oc2ccccc2-n2cccc2C1=O", "mutations": "RT-Y181I", "method": "nucleotide incorporation / radiometric", "result": "10"}
{"compound": "CC(C)=CCOc1cc(NC(=S)c2ccoc2C)ccc1Cl", "mutations": "RT-V106A", "method": "nucleotide incorporation / radiometric", "result": "25"}
{"compound": "CCc1cc(CCc2nc3ccccc3o2)c(=S)[nH]c1C", "mutations": "RT-K103N Y181C", "method": "nucleotide incorporation", "result": "400"}
{"compound": "COc1ccc(/C=C/NC(=O)Nc2ccc(Cl)cn2)cc1OC", "mutations": "RT-L100I", "method": "nucleotide incorporation", "result": "1.43"}
{"compound": "CCc1cc(CCc2nc3c(Cl)ccc(Cl)c3o2)c(=S)[nH]c1C", "mutations": "RT-K103N Y181C", "method": "nucleotide incorporation", "result": "3"}
{"compound": "CCOCn1c(Cc2ccccc2)c(C(C)C)c(=O)[nH]c1=O", "mutations": "RT-V106A P225H", "method": "nucleotide incorporation / radiometric", "result": "109"}
{"compound": "Cc1c(Cc2c(Cl)cccc2Cl)nc(SCc2ccc(O)cc2)[nH]c1=O", "mutations": "RT-181I", "method": "nucleotide incorporation / radiometric", "result": "~1"}
{"compound": "CCN1c2ncc(CCOc3ccc4cc(C(=O)O)ccc4c3)cc2C(=O)N(C)c2cccnc21", "mutations": "RT-K103N Y181C", "method": "nucleotide incorporation / radiometric", "result": "1–10"}
{"compound": "Cc1c(Sc2ccccc2)n(COCCO)c(=O)[nH]c1=O", "mutations": "RT-V179D", "result": "2"}
{"compound": "CCN1c2ncc(CCOc3ccc(S(N)(=O)=O)c4ccccc34)cc2C(=O)N(C)c2cccnc21", "mutations": "RT-K103N Y181C", "method": "nucleotide incorporation / radiometric", "result": "1"}
{"compound": "CCC1(c2cccc(Cl)c2)Cc2ccccc2-n2cccc2C1=O", "mutations": "RT-L100I", "method": "nucleotide incorporation / radiometric", "result": "3"}
{"compound": "O=c1c2cccn2c2cccc(F)c2n1CCNC(=S)Nc1ccc(Br)cn1", "mutations": "RT-L100I", "method": "nucleotide incorporation", "result": "18.9"}
{"compound": "Cc1c(Cc2c(Cl)cccc2Cl)nc(S(=O)(=O)Cc2ccc([N+](=O)[O-])cc2)[nH]c1=O", "mutations": "RT-K103N", "method": "nucleotide incorporation / radiometric", "result": "~1"}
{"compound": "CCN1c2ncc(CCOc3cccc4c3CCCN4CC(=O)O)cc2C(=O)N(C)c2cccnc21", "mutations": "RT-Y188L", "method": "nucleotide incorporation / radiometric", "result": ">10"}
{"compound": "Nc1ccn([C@H]2CC[C@@H](COP(=O)(O)OP(=O)(O)OP(=O)(O)O)O2)c(=O)n1", "mutations": "RT-V106A", "method": "nucleotide incorporation / radiometric", "result": "0.68"}
{"compound": "CCC1(c2ccc(CNc3cccc(F)c3)cc2)Oc2ccccc2-n2cccc2C1=O", "mutations": "RT-Y181I", "method": "nucleotide incorporation / radiometric", "result": ">25"}
{"compound": "Cc1c(Cc2c(Cl)cccc2Cl)nc(SCc2ccc(Cl)cc2)[nH]c1=O", "mutations": "RT-K103N", "method": "nucleotide incorporation / radiometric", "result": ">20"}
{"compound": "CCN1c2ncc(CCOc3ccc(CCC(=O)O)c4ccccc34)cc2C(=O)Nc2c(C)ccnc21", "mutations": "RT-K103N Y181C", "method": "nucleotide incorporation / radiometric", "result": ">10"}
{"compound": "CC(C)=CCN1Cc2cc(Cl)cc3[nH]c(=O)n(c23)C[C@@H]1C", "mutations": "RT-V106A P225H", "method": "nucleotide incorporation / radiometric", "result": "21"}
{"compound": "CCN1c2ncc(CCOc3ccc(CC(C)C(=O)O)c4ccccc34)cc2C(=O)Nc2c(C)cc(Cl)nc21", "mutations": "RT-V106A", "method": "nucleotide incorporation / radiometric", "result": "1–10"}
{"compound": "CCC1(c2ccc(CCc3ccccc3)cc2)Oc2ccccc2-n2cccc2C1=O", "mutations": "RT-Y181I", "method": "nucleotide incorporation / radiometric", "result": ">58.8"}
{"compound": "O=c1c2cccn2ccn1CCNC(=S)Nc1ccc(Br)cn1", "mutations": "RT-K103N", "method": "nucleotide incorporation", "result": "0.944"}
{"compound": "CCC1(c2ccc(COc3ccccc3)cc2)Oc2ccccc2-n2cccc2C1=O", "mutations": "RT-V106A", "method": "nucleotide incorporation / radiometric", "result": "5.2"}
{"compound": "Cc1cn([C@H]2C=C[C@@H](COP(=O)(O)OP(=O)(O)OP(=O)(O)O)O2)c(=O)[nH]c1=O", "mutations": "RT-Q161L", "result": "32"}
{"compound": "CCC1(c2ccc(Cn3ccsc3=N)cc2)Oc2ccccc2-n2cccc2C1=O", "mutations": "RT-Y188L", "method": "nucleotide incorporation / radiometric", "result": ">6.25"}
{"compound": "CCN1c2ncc(CCOc3ccc(C(=O)O)c4ccccc34)cc2C(=O)N(C)c2ccc(Cl)nc21", "mutations": "RT-V106A", "method": "nucleotide incorporation / radiometric", "result": "1–10"}
{"compound": "CCC1(c2ccc(COc3cccc(Cl)c3)cc2)Oc2ccccc2-n2cccc2C1=O", "mutations": "RT-Y181I", "method": "nucleotide incorporation / radiometric", "result": ">100"}
{"compound": "CCN1c2ncc(CCOc3ccc(C(=O)O)c4c3CCCC4)cc2C(=O)N(C)c2cccnc21", "mutations": "RT-Y188L", "method": "nucleotide incorporation / radiometric", "result": ">10"}

A second listing of 4 rows from above:

{"compound": "CCOCn1c(Cc2ccccc2)c(C(C)C)c(=O)[nH]c1=O", "mutations": "RT-V106A P225H", "method": "nucleotide incorporation / radiometric", "result": "109"}
{"compound": "CCC1(c2ccc(COc3ccccc3)cc2)Oc2ccccc2-n2cccc2C1=O", "mutations": "RT-V106A", "method": "nucleotide incorporation / radiometric", "result": "5.2"}
{"compound": "Cc1c(Cc2c(Cl)cccc2Cl)nc(SCc2ccc(O)cc2)[nH]c1=O", "mutations": "RT-181I", "method": "nucleotide incorporation / radiometric", "result": "~1"}
{"compound": "CNc1ccc(Cl)cc1S(=O)(=O)c1ccccc1[N+](=O)[O-]", "mutations": "RT-P236L", "result": "0.00455"}